Measured values taken from ChEMBL document CHEMBL1275243 (2010).

How the values were obtained:
[1] = system: Bacillus anthracis; test: Antimicrobial activity against Bacillus anthracis A0293 assessed as change in fluorescence threshold cycle at 0.06 ug/ml after 4 hrs by real-time PCR viability assay relative to control
[2] = system: Bacillus anthracis; test: Antimicrobial activity against Bacillus anthracis A0462 assessed as change in fluorescence threshold cycle at 0.5 ug/ml after 4 hrs by real-time PCR viability assay relative to control
[3] = system: Bacillus anthracis; test: Antimicrobial activity against Bacillus anthracis A0149 assessed as change in fluorescence threshold cycle at 4 ug/ml after 4 hrs by real-time PCR viability assay relative to control
[4] = system: Bacillus anthracis; test: Antimicrobial activity against Bacillus anthracis A03768 assessed as change in fluorescence threshold cycle at 0.5 ug/ml after 4 hrs by real-time PCR viability assay relative to control
[5] = system: Bacillus anthracis; test: Antimicrobial activity against Bacillus anthracis A0462 assessed as change in fluorescence threshold cycle at 0.06 ug/ml after 4 hrs by real-time PCR viability assay relative to control
[6] = system: Bacillus anthracis; test: Antimicrobial activity against Bacillus anthracis A0149 assessed as change in fluorescence threshold cycle at 16 ug/ml after 4 hrs by real-time PCR viability assay relative to control
[7] = system: Bacillus anthracis; test: Antimicrobial activity against Bacillus anthracis A0264 assessed as change in fluorescence threshold cycle at 8 ug/ml after 4 hrs by real-time PCR viability assay relative to control
[8] = system: Bacillus anthracis; test: Antimicrobial activity against Bacillus anthracis A0488 assessed as change in fluorescence threshold cycle at 2 ug/ml after 4 hrs by real-time PCR viability assay relative to control
[9] = system: Bacillus anthracis; test: Antimicrobial activity against Bacillus anthracis A0488 assessed as change in fluorescence threshold cycle at 0.06 ug/ml after 4 hrs by real-time PCR viability assay relative to control
[10] = system: Bacillus anthracis; test: Antimicrobial activity against Bacillus anthracis A0193 assessed as change in fluorescence threshold cycle at 16 ug/ml after 4 hrs by real-time PCR viability assay relative to control
[11] = system: Bacillus anthracis; test: Antimicrobial activity against Bacillus anthracis A0419 assessed as change in fluorescence threshold cycle at 0.12 ug/ml after 4 hrs by real-time PCR viability assay relative to control
[12] = system: Bacillus anthracis; test: Antimicrobial activity against Bacillus anthracis A0264 assessed as change in fluorescence threshold cycle at 1 ug/ml after 4 hrs by real-time PCR viability assay relative to control
[13] = system: Bacillus anthracis; test: Antimicrobial activity against Bacillus anthracis A0462 assessed as change in fluorescence threshold cycle at 16 ug/ml after 4 hrs by real-time PCR viability assay relative to control
[14] = system: Bacillus anthracis; test: Antimicrobial activity against Bacillus anthracis A0149 assessed as change in fluorescence threshold cycle at 2 ug/ml after 4 hrs by real-time PCR viability assay relative to control
[15] = system: Bacillus anthracis; test: Antimicrobial activity against Bacillus anthracis A0188 assessed as change in fluorescence threshold cycle at 4 ug/ml after 4 hrs by real-time PCR viability assay relative to control
[16] = system: Bacillus anthracis; test: Antimicrobial activity against Bacillus anthracis A0462 assessed as change in fluorescence threshold cycle at 8 ug/ml after 4 hrs by real-time PCR viability assay relative to control
[17] = system: Bacillus anthracis; test: Antimicrobial activity against Bacillus anthracis A0465 assessed as change in fluorescence threshold cycle at 0.06 ug/ml after 4 hrs by real-time PCR viability assay relative to control
[18] = system: Bacillus anthracis; test: Antimicrobial activity against pXO1-positive and pXO2 negative Bacillus anthracis 34F2 assessed as change in fluorescence threshold cycle at 0.25 ug/ml after 4 hrs by real-time PCR viability assay relative to control
[19] = system: Bacillus anthracis; test: Antimicrobial activity against Bacillus anthracis A0293 assessed as change in fluorescence threshold cycle at 1 ug/ml after 4 hrs by real-time PCR viability assay relative to control
[20] = system: Bacillus anthracis; test: Antimicrobial activity against Bacillus anthracis A0193 assessed as change in fluorescence threshold cycle at 2 ug/ml after 4 hrs by real-time PCR viability assay relative to control
[21] = system: Bacillus anthracis; test: Antimicrobial activity against Bacillus anthracis A0248 assessed as change in fluorescence threshold cycle at 1 ug/ml after 4 hrs by real-time PCR viability assay relative to control
[22] = system: Bacillus anthracis; test: Antimicrobial activity against Bacillus anthracis 240 assessed as change in fluorescence threshold cycle at 0.12 ug/ml after 4 hrs by real-time PCR viability assay relative to control
[23] = system: Bacillus anthracis; test: Antimicrobial activity against Bacillus anthracis A0102 assessed as change in fluorescence threshold cycle at 0.5 ug/ml after 4 hrs by real-time PCR viability assay relative to control
[24] = system: Bacillus anthracis; test: Antimicrobial activity against Bacillus anthracis A0465 assessed as change in fluorescence threshold cycle at 0.5 ug/ml after 4 hrs by real-time PCR viability assay relative to control
[25] = system: Bacillus anthracis; test: Antimicrobial activity against Bacillus anthracis A0149 assessed as change in fluorescence threshold cycle at 0.25 ug/ml after 4 hrs by real-time PCR viability assay relative to control
[26] = system: Bacillus anthracis; test: Antimicrobial activity against Bacillus anthracis A0293 assessed as change in fluorescence threshold cycle at 4 ug/ml after 4 hrs by real-time PCR viability assay relative to control
[27] = system: Bacillus anthracis; test: Antimicrobial activity against Bacillus anthracis A0193 assessed as change in fluorescence threshold cycle at 1 ug/ml after 4 hrs by real-time PCR viability assay relative to control
[28] = system: Bacillus anthracis; test: Antimicrobial activity against Bacillus anthracis A0488 assessed as change in fluorescence threshold cycle at 0.12 ug/ml after 4 hrs by real-time PCR viability assay relative to control
[29] = system: Bacillus anthracis; test: Antimicrobial activity against Bacillus anthracis 240 assessed as change in fluorescence threshold cycle at 16 ug/ml after 4 hrs by real-time PCR viability assay relative to control

SMILES | deltaCT [1] | deltaCT [2] | deltaCT [3] | deltaCT [4] | deltaCT [5] | deltaCT [6] | deltaCT [7] | deltaCT [8] | deltaCT [9] | deltaCT [10] | deltaCT [11] | deltaCT [12] | deltaCT [13] | deltaCT [14] | deltaCT [15] | deltaCT [16] | deltaCT [17] | deltaCT [18] | deltaCT [19] | deltaCT [20] | also measured
O=C(O)c1cn(C2CC2)c2cc(N3CCNCC3)c(F)cc2c1=O [CIPROFLOXACIN] | 7.63 | 8.06 | 6.16 | 8.13 | 0.8 | 7.95 | 0.43 | 7.64 | 2.72 | 7.21 | 7.59 | 5.07 | 1.97 | 7.27 | 7.25 | 0.31 | 6.15 | 7.89 | 0.66 | 7.76 | deltaCT [21]: 8.75; deltaCT [22]: 1.85; deltaCT [23]: 8.69; deltaCT [24]: 5.34; deltaCT [25]: 7.67; deltaCT [26]: 4.89; deltaCT [27]: 8.21; deltaCT [28]: 7.76; deltaCT [29]: 8.73
C[C@H]1c2cccc(O)c2C(=O)C2=C(O)[C@]3(O)C(=O)C(C(N)=O)=C(O)[C@@H](N(C)C)[C@@H]3[C@@H](O)[C@@H]21.O [DOXYCYCLINE] | 7.6 | 6.66 | 7.02 | 6.54 | 7.36 | 3.82 | 8.22 | 7.19 | 8.73 | 1.64 | 6.94 | 8.34 | 8 | 8.53 | 7.55 | 7.91 | 7.81 | 6.28 | 8.81 | 9.7 | deltaCT [21]: 7.98; deltaCT [22]: 6.34; deltaCT [23]: 7.88; deltaCT [24]: 7.89; deltaCT [25]: 5.22; deltaCT [26]: 7.93; deltaCT [27]: 9.32; deltaCT [28]: 7.18; deltaCT [29]: 0.82
